Here are results for 1 compound from patent publication US5032514A, “Metabolic pathway engineering to increase production of ascorbic acid intermediates” (Genentech, Inc., priority 1988, dated 1991).

For the data set, the system named is E. herbicola. In words: shake flask incubations of whole cells with 2-KLG or 5-KDG. The class given is cell-based. As to conditions: whole cells at 11 OD550, 12 g/1 substrate.

On to `O=C(CO)[C@@H](O)[C@H](O)[C@@H](O)C(=O)O` [5-KDG, 5-keto-D-gluconate], for which the metabolites observed result is reported as “No metabolites were observed” and the “time by which substrate was eliminated” value was no more than 17 h.
